From patent US8563580B2, “Flavivirus inhibitors and methods for their use” (Georgetown University, priority 2008, dated 2013)
For part of these data: Which two values form the index is not stated here.

Legend:
[1] = system: Dengue 2 replicon expressing BHK cells; test: Replicon inhibition assay (Renilla luciferase), Dengue 2 replicon expressing BHK cells; format: cell-based, Dengue virus (DENV2); details: DENV-BKH cells; from CC50 and EC50; ratio CC50 / EC50
Description: (§1) Baby Hamster Kidney (BHK) and African green monkey kidney epithelial cells (Vero) were cultured in Dulbecco's Modified Eagle Medium (DMEM) (Cellgro®; Mediatech, Inc., Manassas, Va.) supplemented with 10% fetal bovine serum, MEM nonessential amino acid (Cellgro®) (5 ml/liter), and Penicillin-Streptomycin (2.5 ml/liter). Dengue 2 replicon expressing BHK cells and WNV replicon expressing Vero cells were cultured in DMEM as described above containing additionally Geneticin or G418 (Fisher Scientific®, Pittsburgh, Pa.) to maintain the selective pressure of the replicon expressing cells.
Dengue 2 replicon expressing BHK cells and WNV replicon expressing Vero cells were plated 100 μl into a black 96 well plate (Greiner Bio-One; Monroe, N.C.) with 10^5 cells/ml concentrations. After 6 hours of incubation, 1 μl of each compound diluted in DMSO to 2.5 mM was added into each well to obtain a 25 μM as the final concentration. Cells were incubated at 37° C. in a humidified CO2 (5%) chamber for 24 hours. The media was then removed and the cells are washed with PBS before adding 20 μl of lysis buffer to each well. A Renilla luciferase assay was performed with the addition of 50 μl substrate (Promega Corporation; Madison, Wis.) with a 2 second delay and a 10 second measurement in a Centro LB 960 plate luminescence plate reader (Berthold Technologies; Oak Ridge, Tenn.). The data was analyzed and plotted with GraphPad Prism 5 (GraphPad Software, Inc.; La Jolla, Calif.).
Renilla luciferase activity was measured as described above 24 hours after the addition of the compounds.

[2] = system: WNV replicon expressing Vero cells; test: Replicon inhibition assay (Renilla luciferase), WNV replicon expressing Vero cells; format: cell-based, West Nile virus (WNV); details: therapeutic index from CC50 and EC50
Description: as §1
Dengue 2 replicon expressing BHK cells and WNV replicon expressing Vero cells were plated 100 μl into a black 96 well plate (Greiner Bio-One; Monroe, N.C.) with 10^5 cells/ml concentrations. […] A Renilla luciferase assay was performed with the addition of 50 μl substrate (Promega Corporation; Madison, Wis.) with a 2 second delay and a 10 second measurement in a Centro LB 960 plate luminescence plate reader (Berthold Technologies; Oak Ridge, Tenn.). The data was analyzed and plotted with GraphPad Prism 5 (GraphPad Software, Inc.; La Jolla, Calif.).
Specifically, the cells were prepared as above and the concentration of the compounds were varied (see Table 2). Renilla luciferase activity was measured as described above 24 hours after the addition of the compounds.

SMILES | TI (Therapeutic Index) [1] | TI [2]
Oc1c(CN2CCOCC2)ccc2cccnc12 [Compound 33] | 42863.4 | 
Oc1c(CN2CCOCC2)cc(Cl)c2cccnc12 [Compound 34] | 4.8557 | 24.82
CCN(CC)Cc1cc(Cl)c2cccnc2c1O [Compound 35] | 29.8551 | 18.04
Oc1c(CN2CCOCC2)cc(Cl)c2c1NCCC2 [Compound 36] | 3.487 | 
